Pooled drug test results. Numbers come from NIAID ChemDB, via PubChem.

All rows: whole-cell or culture tests; species: Hepatitis C virus; endpoint: EC50

a–b is a range or a potency band.

smiles | strain | setting | mutations | cell line | read by | result
CC1(C)CC(=O)C2=C(C1)Nc1c(O)cccc1N(C(=O)CCC(=O)N1CCNC(=O)C1)C2c1ccc(OCc2ccccc2)cc1Cl | 1b |  |  |  | luciferase / reporter gene / replicon | 46.96 µM
C=C[C@@H]1C[C@]1(NC(=O)[C@@H]1C[C@@H](Oc2cc(-c3ccccc3)nc3cc(OC)ccc23)CN1C(=O)[C@@H](NC(=O)OC(C)(C)C)C(C)C)C(=O)NS(=O)(=O)C1CCC1 | 1b |  |  | Huh7 | replicon | <0.05 µM
COc1c(-c2ccc3cc(NS(C)(=O)=O)ccc3c2)cc(-n2ccc(=O)[nH]c2=O)cc1C(C)(C)C | genotype 1b Con1 |  | Y448H | Huh7 | luciferase | 0.027 µM
COCCN(C(=O)C1CCC(C)CC1)c1cc(-c2ccc(-c3cc4ccccc4o3)cc2)sc1C(=O)O | 1b |  |  |  | replicon / ELISA | 0.001–0.0049 µM
C=C[C@@H]1C[C@]1(NC(=O)[C@@H]1C[C@@H](Oc2cc(-c3ccccc3)nc3cc(OC)ccc23)CN1C(=O)[C@@H](NC(=O)OC(C)(C)C)C(C)(C)C)C(=O)NS(=O)(=O)c1ccc(C(C)(C)C)cc1 | 1b |  |  | Huh7 | replicon | <0.5 µM
Cc1ccc(-n2ncc3c(Nc4ccc(N5CCOCC5)cc4)ncnc32)c(C)c1 |  |  |  | HUH 9B | replicon | <1 µM
C=C[C@@H]1C[C@]1(NC(=O)[C@@H]1C[C@@H](Oc2cc(-c3ccccc3)nc3cc(OC)ccc23)CN1C(=O)[C@H](CC(C)C)NC(=O)OC(C)(C)C)C(=O)NS(=O)(=O)C(C)C | 1b |  |  | Huh7 | replicon | <0.5 µM
CCOc1nc(N)nc2c1ncn2[C@@H]1O[C@@H]2COP(=O)(OC(C)C)O[C@H]2[C@@]1(C)F | 2a | 158 d |  |  | replicon | 3.07 µM
COc1ccc2c(O[C@@H]3C[C@@H](C(=O)NC4(C(=O)NS(=O)(=O)C5CC5)CCC45CC5)N(C(=O)[C@@H](NC(=O)OC(C)(C)C)C(C)(C)C)C3)cc(-c3ccccc3)nc2c1 | 1b |  |  | Huh7 | replicon | <5 µM
Cc1cc(C)n2nc(CC3=C(O)CC(CCc4ccc(C(C)(C)C#N)c(Cl)c4)(C4CCCC4)OC3=O)nc2n1 | FC |  |  |  | replicon | 146 µM
CCOCCN(C(=O)C1CCC(C)CC1)c1cc(-c2ccc(-c3cn4ccsc4n3)cc2)sc1C(=O)O | 1b |  |  |  | replicon / ELISA | 0.01–0.049 µM
CCCCn1c(=O)c2ccccc2c2cc(C(O)(C(F)(F)F)C(F)(F)F)c3c(c21)OCO3 | 1b |  |  | LucNeo2 cells | PCR | 0.68 µM
CC1CCC(C(=O)N(CC2CCOCC2)c2cc(-c3ccc(-c4cn5ccccc5n4)cc3)sc2C(=O)O)CC1 | 1a |  |  |  | replicon / ELISA | 0.005–0.0099 µM
NS(=O)(=O)c1ccc(CCNc2ncnc3c2CNN3c2ccccc2Br)cc1 |  |  |  | HUH 9B | replicon | 1–10 µM
CC1CCC(C(=O)N(c2cc(-c3ccc(-c4cc5ncccn5n4)cc3)sc2C(=O)O)C2CCOC2)CC1 | 1a |  |  |  | replicon / ELISA | 0.005–0.0099 µM
COC(=O)N1c2cccc(O)c2NC2=C(C(=O)CC(C)(C)C2)C1c1ccc(OCc2ccccc2)cc1Cl | 1b |  |  |  | luciferase / reporter gene / replicon | 3.71 µM
CC1CCC(C(=O)N(c2cc(-c3ccc(-c4cc5ncccn5n4)cc3)sc2C(=O)O)C2CCOCC2)CC1 | 1a |  |  |  | replicon / ELISA | 0.001–0.0049 µM
C=C[C@@H]1C[C@]1(NC(=O)[C@@H]1C[C@@H](Oc2cc(-c3ccccc3)nc3cc(OC)ccc23)CN1C(=O)[C@@H](NC(=O)OCCF)C(C)(C)C)C(=O)NS(=O)(=O)C1CC1 | 1b |  |  | Huh7 | replicon | <0.05 µM
Cc1cc(-c2nnc(NC3CC(O)(C(F)F)C3)o2)nc2c(C(C)(C)C)cc(NCC(F)(F)F)cc12 | GT 1b H94N |  |  | Huh7 |  | 0.0074 µM
CC1CCC(C(=O)N(c2cc(-c3ccc(-c4cn5ccsc5n4)cc3)sc2C(=O)O)C2CCOCC2)CC1 | 1a |  |  |  | replicon / ELISA | 0.01–0.049 µM
Cc1ccc(-n2ncc3c(Nc4ccc(N5CCOCC5)c(F)c4)ncnc32)c(C)c1 |  |  |  | HUH 9B | replicon | <1 µM
CC(=O)N1c2cccc(O)c2NC2=C(C(=O)CC(C)(C)C2)C1c1ccc(OCc2cccnc2)cc1Cl | 1b |  |  |  | luciferase / reporter gene / replicon | 13.93 µM
COCCN(C(=O)C1CCC(C(F)(F)F)CC1)c1cc(-c2ccc(-c3cc4ncccn4n3)cc2)sc1C(=O)O | 1a |  |  |  | replicon / ELISA | 0.05–0.099 µM
C=CC1CC1(NC(=O)[C@@H]1C[C@@H](Oc2cc(-c3ccccc3)nc3cc(OC)ccc23)CN1C(=O)[C@@H](NC(=O)OC(C)(C)C)C(C)(C)C)C(=O)NS(=O)(=O)c1ccc([N+](=O)[O-])cc1 | 1b |  |  | Huh7 | replicon | <0.5 µM
COc1ccc(Cl)cc1Nc1ncnc2c1cnn2-c1ccccc1Cl |  |  |  | HUH 9B | replicon | >10 µM
CC1(C)CC(=O)C2=C(C1)Nc1c(O)cccc1NC2c1cc(F)c(OCc2ccccc2)c(F)c1 | 1b |  |  |  | luciferase / reporter gene / replicon | 16.62 µM
NS(=O)(=O)c1ccc(CCNc2ncnc3c2cnn3-c2cccc(Cl)c2)cc1 |  |  |  | HUH 9B | replicon | 1–10 µM
CC1CCC(C(=O)N(c2cc(-c3ccc(-c4cc5ncccc5o4)cc3)sc2C(=O)O)C2CCOC2)CC1 | 1a |  |  |  | replicon / ELISA | 0.005–0.0099 µM
COc1ccc(-c2ocnc2C(=O)N2c3cccc(O)c3NC3=C(C(=O)CC(C)(C)C3)C2c2ccc(OCc3ccccc3)cc2F)cc1 | 1b |  |  |  | luciferase / reporter gene / replicon | 2.8 µM
Cc1ccc(-n2ncc3c(Nc4ccc(Cl)c(Cl)c4)ncnc32)c(C)c1 |  |  |  | HUH 9B | replicon | <1 µM
Cc1cc(-c2nnc(N[C@@H]3CCC[C@H](O)C3)o2)nc2c(C(C)(C)C)cc(NCC(F)(F)F)cc12 | GT 2a JFH |  |  | Huh7 |  | 0.003 µM
Cc1ccc(-n2ncc3c(Nc4ccc(C(N)=O)cc4)ncnc32)c(C)c1 |  |  |  | HUH 9B | replicon | 1–10 µM
CC1CCC(C(=O)N(CC2CCOCC2)c2cc(-c3ccc(-c4cc5ncccn5n4)cc3)sc2C(=O)O)CC1 | 1a |  |  |  | replicon / ELISA | 0.001–0.0049 µM

Rows are shuffled and stem from different studies. An empty or dashed field is not shown. ECn is the concentration giving n% inhibition of infection, replication or growth.